Measured values reported in patent publication US6987127B2, “Regulation of NAD(P)H oxidase growth and transcription in melanoma cells” (Charlotte-Mecklenburg Hospital Authority, priority 2001, dated 2006).

Tests used:
[1] = tested on: membrane NAD(P)H oxidase of M1619 melanoma cells; test: SOD-inhibitable lucigenin chemiluminescence (O2- generation) by 100,000 g plasma membrane fraction; format: biochemical, human; conditions: 1 μmol/L, 15 μg membrane protein, 100 μmol/L NADPH, 5 minutes
[2] = tested on: M1619 malignant melanoma cells; test: Proliferation of cultured cells with oxidase inhibitors (MTT assay); format: cell-based, human; conditions: after 48 hours, highest dose (50 μmol/L), 10% FBS; P<0.001

## O=[As]c1ccccc1 (centres unmarked)
[1]
  Lucigenin chemiluminescence of membranes + NADPH: significantly inhibited
[2]
  Inhibition of M1619 malignant melanoma cell growth: 96.2±0.6%
